Experimental findings from patent US6913895B1, “Methods for assaying transglycosylase reactions, and for identifying inhibitors thereof” (Advanced Medicine East, Inc., priority 1999, dated 2005) are described below.

In the experiment the test system is S. aureus 33591 (MRSA). Conditions: methicillin resistant.

Values after ≈ are worked out from the molar mass of the structure shown.

One may read the MIC as the lowest concentration that inhibits growth of the organism. The low end stands for inhibition by little substance, the high end for a need for much substance. Compound `C[C@@H]1O[C@@H](O[C@H]2[C@H](Oc3c4cc5cc3Oc3ccc(cc3Cl)[C@@H](O)[C@@H](N)C(=O)N[C@@H](CC(N)=O)C(=O)N[C@H]5C(=O)NC3C(=O)NC(C(=O)N[C@H](C(=O)O)c5cc(O)cc(O)c5-c5cc3ccc5O)[C@H](O)c3ccc(c(Cl)c3)O4)O[C@H](CO)[C@@H](O)[C@@H]2O)C[C@](C)(NCc2ccc(-c3ccc(Cl)cc3)cc2)[C@@H]1O` (mixture of isomers) [CBP-dl-vancomycin, chlorobiphenyl-desleucyl-vancomycin] returned a minimum inhibitory concentration (MIC) of 6.26 µg/mL (≈ 4.11 µM).

The compound `CN[C@H](CC(C)C)C(=O)N[C@H]1C(=O)N[C@@H](CC(N)=O)C(=O)N[C@H]2C(=O)N[C@H]3C(=O)N[C@H](C(=O)N[C@H](C(=O)O)c4cc(O)cc(O)c4-c4cc3ccc4O)[C@H](O)c3ccc(c(Cl)c3)Oc3cc2cc(c3O[C@@H]2O[C@H](CO)[C@@H](O)[C@H](O)[C@H]2O[C@H]2C[C@](C)(NCc3ccc(-c4ccc(Cl)cc4)cc3)[C@H](O)[C@H](C)O2)Oc2ccc(cc2Cl)[C@H]1O` [CBP-vancomycin, chlorobiphenyl-vancomycin] gave a minimum inhibitory concentration (MIC) of 0.25 µg/mL (≈ 0.152 µM).
